Pooled drug test results. Numbers come from NIAID ChemDB, via PubChem.

All rows: growth or infection tests; organism: Hepatitis B virus; cell line: HepG2 2.2.15; endpoint: EC50

An empty or dashed field is not shown.

compound	strain	method	result
O=C(CSc1nnc(CNc2ccccc2)n1-c1ccccc1)NN=CC(O)C(O)C(O)C(O)CO	-	ELISA	64 µM
Nc1ncnc2c1ccn2[C@H]1C=C[C@@H](CO)C1	-	hybridisation	>200 µM
CN(/C=C1\SC(=O)NC1=O)Cc1cccc2ccccc12	-	ELISA	9.56 µM
COC1OC(Cn2cc(C)c(=O)nc2SC)C(O)C1O	-	ELISA	90 µM
COC(=O)[C@H](C)NP(=O)(OC[C@@H]1C=C[C@H](n2ccc3c(N)ncnc32)C1)Oc1ccccc1	-	hybridisation	54 µM
CNc1ncnc2c1ncn2[C@H]1CC(F)[C@@H](CO)O1	-	-	>200 µM
CO[C@@]12C[C@@H](C(=O)O[C@@H]3C[C@H](O)[C@@H](O)[C@H](O)[C@H]3OC3O[C@H](CO)[C@@H](O)[C@H](O)[C@H]3O)C[C@H](O)[C@]1(O)[C@@H](O)[C@]1(C[C@H](OC(=O)c3ccc(O)cc3)[C@H](C)CO1)O2	-	ELISA / antigen	25.9 µM
CCCc1cc(=O)[nH]c(SCC2OC(OC)C(O)C2O)n1	-	ELISA	<100 µM
Nc1ncnc2c1ncn2[C@H]1CC(F)[C@@H](CO)O1	-	-	140 µM
CNc1nc2c(N)ncnc2n1[C@H]1CC[C@@H](CO)C1	-	hybridisation	33 µM
O=C(CNc1ccccc1)NNC(=S)Nc1ccccc1	-	ELISA	11.4 µM
COC(=O)C(C)(C)NP(=O)(OC[C@H]1C=C[C@@H](n2ccc3c(N)ncnc32)C1)Oc1ccccc1	-	hybridisation	0.05 µM
C=CCn1c(=O)c(-c2cc(COC(C)=O)n(-c3ccccc3)n2)nc2ccccc21	-	ELISA	0.33 µM
Cc1cc(C)cc(Sc2cc(=O)[nH]c(=O)[nH]2)c1	-	hybridisation	>100 µM
COC(=O)[C@H]1C[C@H](O)[C@@]2(O)[C@@H](C1)O[C@@]1(C[C@H](OC(=O)c3ccc(O)cc3)[C@H](C)CO1)[C@@H]2O	-	ELISA / antigen	28.8 µM
COC1OC(Cn2ccc(=O)nc2SC)C(O)C1O	-	ELISA	>100 µM
COC(=O)[C@H](C)NP(=O)(OC[C@H]1O[C@@H](n2ccc3c(N)ncnc32)CC1F)Oc1ccccc1	-	-	10 µM
O=c1c(-c2cc(CO)n(-c3ccc(Br)cc3)n2)nc2ccccc2n1CC(Br)CBr	-	ELISA	0.21 µM
Nc1ncnc2c1nc(Br)n2[C@H]1CC[C@@H](CO)C1	-	hybridisation	2 µM
COC(=O)[C@H](Cc1ccccc1)NP(=O)(OC[C@@H]1C=C[C@H](n2ccc3c(N)ncnc32)C1)Oc1ccccc1	-	hybridisation	20 µM
C[C@@H]1CO[C@@]2(C[C@@H]1OC(=O)c1ccc(O)cc1)O[C@]1(O)C[C@@H](C(=O)O[C@@H]3C[C@H](O)[C@@H](O)[C@H](O)[C@H]3OC3O[C@H](CO)[C@@H](O)[C@H](O)[C@H]3OC3O[C@H](CO)[C@@H](O)[C@H](O)[C@H]3O)C[C@H](O)[C@]1(O)[C@H]2O	-	ELISA / antigen	35.8 µM
COC1OC(Cn2c(C)cc(=O)nc2SC)C(O)C1O	-	ELISA	>100 µM
CCC[C@H](Nc1nc(-c2ccc(NC(=O)NCC)c(OC)c2)ncc1C)c1cccnc1	Genotype D	ELISA	0.08 µM
CN(C)C(=O)c1nc2c(N)ncnc2n1[C@H]1CC[C@@H](CO)C1	-	hybridisation	47 µM
CCc1c(Sc2ccc(C)cc2)[nH]c(=O)[nH]c1=O	-	hybridisation	52 µM
Fc1ccc(NCc2nc(=S)[nH][nH]2)cc1	-	ELISA	87.9 µM
Nc1ncnc2c1nc(I)n2[C@H]1CC[C@@H](CO)C1	-	hybridisation	1.3 µM
CC(=O)N[C@H]1C(O[C@@H]2[C@@H](O)[C@H](O)[C@@H](O)C[C@H]2OC(=O)[C@H]2C[C@H](O)[C@]3(O)[C@@H](O)[C@]4(C[C@H](OC(=O)c5ccc(O)cc5)[C@H](C)CO4)O[C@]3(O)C2)O[C@H](CO)[C@@H](O)[C@@H]1O	-	ELISA / antigen	24.3 µM
COC(=O)[C@H](C)NP(=O)(OC[C@@H]1O[C@H](n2cnc3c(N)ncnc32)CC1F)Oc1ccccc1	-	-	24 µM
C[C@H](NP(=O)(OC[C@H]1C=C[C@@H](n2ccc3c(N)ncnc32)C1)Oc1ccccc1)C(=O)OCc1ccccc1	-	hybridisation	0.1 µM
COC(=O)[C@H](C)NP(=O)(OC[C@H]1O[C@@H](n2cnc3c(N)ncnc32)CC1F)Oc1ccccc1	-	-	0.018 µM
CCc1c(Sc2cc(Cl)ccc2C)[nH]c(=O)[nH]c1=O	-	hybridisation	38 µM
O=C(CSc1nnc(CNc2ccc(F)cc2)n1-c1ccccc1)NN=CC(O)C(O)C(O)CO	-	ELISA	16.7 µM

A second listing of 4 rows from above:

{"compound": "CNc1nc2c(N)ncnc2n1[C@H]1CC[C@@H](CO)C1", "method": "hybridisation", "result": "33 µM"}
{"compound": "CNc1ncnc2c1ncn2[C@H]1CC(F)[C@@H](CO)O1", "result": ">200 µM"}
{"compound": "COC1OC(Cn2cc(C)c(=O)nc2SC)C(O)C1O", "method": "ELISA", "result": "90 µM"}
{"compound": "COC1OC(Cn2ccc(=O)nc2SC)C(O)C1O", "method": "ELISA", "result": ">100 µM"}

Lines come from different laboratories, so protocols vary. ECn: concentration that inhibits the pathogen or its effect by n%.